# Tested on: FVB/N mice
# Details: 1.14×LD50 paraoxon, otherwise untreated mice
compound,measurement,value
CCOP(=O)(OCC)Oc1ccc([N+](=O)[O-])cc1,time to death,5 to 10 min
